Laboratory results: patent publication US8222257B2, “Phosphono-pent-2-en-1-yl nucleosides and analogs” (The Regents of the University of California, priority 2005, dated 2012)

Legend:
[1] = test system: HBV N236T (Adefovir dipivoxil)

SMILES | activity against 3TC-resistant HBV M204V, in words (HBV M204V (3TC)) | activity against adefovir-resistant HBV N236T, in words [1] | activity against 3TC-resistant HBV M204I, in words (HBV M204I (3TC)) | activity against 3TC-resistant HBV L180M, in words (HBV L180M (3TC)) | activity against 3TC-resistant HBV double mutant L180M/M204V, in words (HBV L180M/M204V (3TC))
CCCCCCCCCCCCCCCCOCCCOP(=O)(O)CC/C=C\Cn1cnc2c(=O)[nH]c(N)nc21 [HDP-PPen-G, (Z)-3-(hexadecyloxy)propyl hydrogen 5-(2-amino-6-oxo-1,6-dihydropurin-9-yl)pent-3-enylphosphonate] | active | fully active | active |  | 
CCCCCCCCCCCCCCCCOCCCOP(=O)(O)CC/C=C\Cn1cnc2c(N)ncnc21 [HDP-PPen-A] | fully active | fully active | fully active | fully active | fully active
